The values that follow come from patent US20180009859A1, “PHARMACOLOGICAL MODULATORS OF GABAA RECEPTORS AND THEIR USE” (priority 2015, published 2018).

This series relates to GABAA receptors in SPMs. It is filed as binding, rat.

B1: ^125I-rMmTX2: MmTX2 radioactively labeled by lacto-peroxidase-catalyzed iodination (protein)
peptide: LTCKTCPFTTCPNSESCPGGQSICYQRKWEEHHGERIERRCVANCPAFGSHDTSLLCCTRDNCN
In the case of B1, under “1 mM PTX”, the “ratio of Bmax with/without PTX” value was 2.01. Also, the “maximum capacity Bmax” value (SPMs, without PTX) came out at 264 ± 14 fmol/mg. Besides, the “Bmax with PTX” value (in the presence of 1 mM PTX) was 532 ± 33 fmol/mg.
